Biological target: the molecule itself
Assay: SEC

B1: VapBC27 heterodimer (complex)
chain 1: [about 80 residues not given here]
chain 2: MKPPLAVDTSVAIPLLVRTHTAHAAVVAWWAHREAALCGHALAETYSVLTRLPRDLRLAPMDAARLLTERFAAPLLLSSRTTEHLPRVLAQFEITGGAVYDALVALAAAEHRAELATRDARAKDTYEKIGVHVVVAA
notes: VapB27 antitoxin of Mycobacterium tuberculosis, gene Rv0599c; as m5; VapC27 toxin of Mycobacterium tuberculosis, gene Rv0598c; as m6; also called Rv0599c/Rv0598c
stoichiometry N: 2.55 VapBC heterodimers per complex

— PMC6118392, “VapC proteins from Mycobacterium tuberculosis share ribonuclease sequence specificity but differ in regulation and toxicity” (PLoS ONE, 2018)
